Measurements: PMC7590151 (International Journal of Molecular Sciences, 2020)
HELM strings list residues between dots; [ac] is acetyl, [am] amide, other brackets name non-standard units.

Test: general procedure: Fmoc solid-phase peptide synthesis; H-Rink amide ChemMatrix, 0.47 mmol/g; PyBOP/OxymaPure/DIPEA (printed for CF incorporation)
Details: 220 nm

Substance	final HPLC purity (conjugation step) [%]	final HPLC purity (whole synthesis) [%]
PEPTIDE1{[ac].C.G.R.K.K.R.R.Q.R.R.R.[am]}|CHEM1{[DoxMCC]}$PEPTIDE1,CHEM1,2:R3-1:R1$$$V2.0	>95	–
PEPTIDE1{[gCBAA].[cAmpGp].[gCBAA].[cAmpGp].[gCBAA].[cAmpGp].[gCBAA].[cAmpGp].[gCBAA].[cAmpGp].[gCBAA].[cAmpGp].[am]}$$$$V2.0	–	>95
PEPTIDE1{[gCBAA].[cAmpGp].[gCBAA].[cAmpGp].[gCBAA].[cAmpGp].[gCBAA].[cAmpGp].[gCBAA].[cAmpGp].[gCBAA].[cAmpGp].[gCBAA].[cAmpGp].[am]}$$$$V2.0	–	>97
PEPTIDE1{[gCBAA].[tAmpGp].[gCBAA].[tAmpGp].[gCBAA].[tAmpGp].[gCBAA].[tAmpGp].[gCBAA].[tAmpGp].[gCBAA].[tAmpGp].[am]}$$$$V2.0	–	>96
PEPTIDE1{[gCBAA].[tAmpGp].[gCBAA].[tAmpGp].[gCBAA].[tAmpGp].[gCBAA].[tAmpGp].[gCBAA].[tAmpGp].[gCBAA].[tAmpGp].[gCBAA].[tAmpGp].[am]}$$$$V2.0	–	>96
